Reference: PubChem BioAssay AID1259414 (Drosophila RNAi Screening Center, 2018)
In all, the deposit lists about 24,000 reagents; shown is an unselected part of those that have a named target and a result. Of all reagents, about 1,210 (5%) got an active call. 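Inactive calls also include excluded dsRNAs with several or no targets, genes unexpressed in JW18, and well A1, regardless of score.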

Screen: 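Host factors increasing or decreasing Wolbachia levels in cultured fly cells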 (primary screen)
System: Drosophila JW18 cells infected with Wolbachia
Reagents: long dsRNA against Drosophila genes, 0.25 µg dsRNA per well of a 384-well plate
Time to read-out: 5 days
Conditions: cells persistently infected with Wolbachia before knock-down; no added drug
Measurement: 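Imaged fluorescence in situ signal for Wolbachia 23S rRNA per DAPI-counted host cell, given as a robust z-score within each plate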
Reading the numbers: Wolbachia per cell robust z: higher = more Wolbachia per host cell than the plate typical
Call rule: 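Hit when robust z is 1.5 or more, or -1.5 or less, in at least two of three replicates; excludes dsRNAs with several or no targets, genes not expressed in JW18 and well A1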

gene knocked down | dsRNA | Wolbachia per cell robust z, rep 1 | Wolbachia per cell robust z, rep 2 | Wolbachia per cell robust z, rep 3 | activity call
CG11598 | DRSC14331 | -0.0652 | 0.737 | -0.446 | inactive
CG11598 | DRSC41509 | 0.81 | 0.434 | 0.0417 | inactive
CG10317 | DRSC14229 | -2.6 | -0.00316 | -0.161 | inactive
fs(1)h (female sterile (1) homeotic) | DRSC18778 | 0.114 | -0.319 | 0.103 | inactive
fs(1)h (female sterile (1) homeotic) | DRSC29017 | 2.17 | 2.39 | 1.51 | active
CG12942 | DRSC06253 | -0.0106 | -1.43 | -0.434 | inactive
CG12942 | DRSC25987 | -1.89 | 0.673 | -0.542 | inactive
GalT1 (beta1,3-galactosyltransferase 1) | DRSC22238 | 0.815 | 0.412 | -0.449 | inactive
CG1239 | DRSC12204 | -0.26 | -6.45 | -2.15 | active
CG1239 | DRSC27944 | 0.868 | -0.0695 | 0.554 | inactive
Hsp67Ba (Heat shock gene 67Ba) | DRSC11191 | -0.674 | 0.797 | -0.166 | inactive
Hsp67Ba (Heat shock gene 67Ba) | DRSC23678 | -1.42 | -5.79 | 0.729 | inactive
flfl (falafel) | DRSC16474 | -2.83 | 1.04 | -5.51 | active
CG15254 | DRSC01870 | 1.04 | 0.0457 | 0.163 | inactive
CG15254 | DRSC21765 | -0.172 | -0.524 | 0.714 | inactive
CG15254 | DRSC29568 | 0.874 | 0.455 | 0.918 | inactive
Actn (alpha actinin) | DRSC17724 | -0.471 | -1.88 | -1.09 | inactive
Actn (alpha actinin) | DRSC25653 | -0.552 | -2.31 | 0.291 | inactive
mRpL35 (mitochondrial ribosomal protein L35) | DRSC14586 | 0.797 | 0.338 | 1.07 | inactive
CG9863 | DRSC28491 | -1.6 | 0.0209 | -0.242 | inactive
Chd3 | DRSC11114 | -1.28 | -1.7 | -2.69 | active
Chd3 | DRSC23701 | 0.932 | -1.3 | -2.78 | inactive
noi (noisette) | DRSC12383 | -0.6 | -0.851 | 0.53 | inactive
noi (noisette) | DRSC26152 | 0.535 | 2.55 | 0.66 | inactive
CG33543 | DRSC00384 | -0.579 | -0.885 | -1.1 | inactive
CG33543 | DRSC00385 | -0.864 | 0.424 | 0.276 | inactive
CG10700 | DRSC02096 | 0.0886 | 0.107 | 1.13 | inactive
Hpf1 (Histone PARylation factor 1) | DRSC12202 | -2.22 | -1.05 | -0.465 | inactive
tau | DRSC22987 | -0.0402 | -0.83 | -4.11 | inactive
tau | DRSC23046 | 1.24 | 0.144 | -1.71 | inactive
tau | DRSC25786 | -0.664 | -0.314 | -1.98 | inactive
tau | DRSC38649 | 0.738 | 0.0461 | -0.197 | inactive
tau | DRSC39085 | -3.45 | 0.4 | -0.367 | inactive
Npc2g (Niemann-Pick type C-2g) | DRSC14296 | 1.15 | -0.128 | 1.47 | inactive
CG16710 | DRSC15136 | 0.135 | -0.441 | -0.766 | inactive
NUCB1 (Nucleobindin 1) | DRSC22137 | 0.0527 | -0.972 | -0.467 | inactive
NUCB1 (Nucleobindin 1) | DRSC29109 | 0.566 | -0.0274 | 0.262 | inactive
CG9541 | DRSC03257 | -1.08 | -0.012 | -1.59 | inactive
CG9541 | DRSC41587 | -1.03 | -1.78 | 0.623 | inactive
EndoA (Endophilin A) | DRSC14775 | -0.318 | -0.0822 | 0.23 | inactive
EndoA (Endophilin A) | DRSC29646 | 1.24 | 0.908 | 0.846 | inactive
CG8993 | DRSC08616 | -0.894 | -0.959 | -0.396 | inactive
CG8993 | DRSC27318 | 0.215 | -0.32 | 0.558 | inactive
CG8993 | DRSC41267 | -1.5 | -1.13 | 1.28 | inactive
Lcp65Ag2 | DRSC41300 | -0.426 | -1.37 | -1.9 | inactive
Sh3beta | DRSC11001 | -4.19 | 0.127 | -9.44 | active
Sh3beta | DRSC22053 | -0.316 | -0.878 | 0.85 | inactive
Sh3beta | DRSC27871 | -0.314 | 0.05 | -0.0744 | inactive
CG40485 | DRSC38788 | 1.7 | 0.787 | 2.18 | inactive
Ubr3 (Ubr3 ubiquitin ligase) | DRSC17987 | 0.73 | 0.0308 | 0.852 | inactive
Ubr3 (Ubr3 ubiquitin ligase) | DRSC17997 | 0.353 | -2.7 | 0.511 | inactive
Ubr3 (Ubr3 ubiquitin ligase) | DRSC27473 | -5.43 | -0.25 | -0.762 | inactive
Ubr3 (Ubr3 ubiquitin ligase) | DRSC29072 | 1.24 | -0.0589 | -0.361 | inactive
DnaJ-H (DnaJ homolog) | DRSC03273 | -0.716 | -1.77 | -0.386 | inactive
Ntl (Neurotransmitter transporter-like) | DRSC03003 | 0.253 | -0.342 | -0.479 | inactive
Ntl (Neurotransmitter transporter-like) | DRSC28007 | -0.122 | -0.864 | -0.833 | inactive
CG30287 | DRSC03875 | -1.06 | -0.069 | 0.0302 | inactive
Uhg1 (U snoRNA host gene 1) | DRSC26214 | -1.09 | -2.61 | 0.076 | inactive
CG42682 | DRSC41433 | -2.51 | 0.391 | -0.224 | inactive
ND-PDSW (NADH dehydrogenase (ubiquinone) PDSW subunit) | DRSC00715 | 0.291 | -0.109 | -10.1 | inactive
nAChRbeta3 (nicotinic Acetylcholine Receptor beta3) | DRSC00325 | -2.13 | -0.809 | -0.417 | inactive
CG5800 | DRSC19962 | -0.976 | -0.312 | 0.691 | inactive
CG5800 | DRSC28009 | -0.932 | -0.556 | -1.79 | inactive
CG33725 | DRSC38844 | 0.275 | -0.258 | 0.228 | inactive
lt (light) | DRSC03759 | -0.703 | -1.04 | -0.587 | inactive
CG46457 | DRSC41440 | -0.291 | -2.17 | -0.809 | inactive
CG3402 | DRSC08567 | -0.184 | 0.509 | 0.89 | inactive
Nup43 (Nucleoporin 43kD) | DRSC16279 | -0.599 | -0.584 | 0.0497 | inactive
hook | DRSC03545 | 1 | -0.896 | -1.01 | inactive
Nuf2 | DRSC03123 | 0.0662 | 0.46 | 0.248 | inactive
Nprl3 (Nitrogen permease regulator-like 3) | DRSC11044 | 0.275 | 0.966 | -0.844 | inactive
CG15572 | DRSC24999 | 1.18 | -7.86 | 0.525 | inactive
RpL13A (Ribosomal protein L13A) | DRSC12265 | 1.87 | 3.19 | 1.92 | active
RpL13A (Ribosomal protein L13A) | DRSC27297 | 1.91 | -2.61 | -0.21 | inactive
asRNA:CR31084 (antisense RNA:CR31084) | DRSC21649 | -0.759 | 0.154 | -1.08 | inactive
Gr59d (Gustatory receptor 59d) | DRSC22553 | 0.97 | 0.83 | 1.24 | inactive
CG11300 | DRSC04104 | -0.0922 | -0.589 | 0.104 | inactive
brn (brainiac) | DRSC18746 | 0.342 | 0.53 | 0.126 | inactive
CG42246 | DRSC40610 | -0.186 | -2.13 | -0.528 | inactive
ATPsynC (ATP synthase, subunit C) | DRSC15236 | 2.57 | -9.18 | -0.784 | inactive
gcm2 | DRSC03538 | 0.302 | -1.16 | -0.178 | inactive
gcm2 | DRSC29823 | -6.51 | -1.12 | -0.724 | inactive
Cpr47Ec (Cuticular protein 47Ec) | DRSC07332 | -1.41 | -0.00262 | -2.29 | inactive
Blos2 | DRSC10147 | 1.34 | 0.664 | -0.224 | inactive
Blos2 | DRSC25642 | 0.29 | -0.721 | 0.328 | inactive
mt:ND2 (mitochondrial NADH-ubiquinone oxidoreductase chain 2) | DRSC21274 | -0.179 | -0.676 | -0.604 | inactive
mt:ND2 (mitochondrial NADH-ubiquinone oxidoreductase chain 2) | DRSC41544 | 0.48 | -0.746 | 1.2 | inactive

10 successive reagents from above, quoted:
gene knocked down | dsRNA | Wolbachia per cell robust z, rep 1 | Wolbachia per cell robust z, rep 2 | Wolbachia per cell robust z, rep 3 | activity call
Uhg1 (U snoRNA host gene 1) | DRSC26214 | -1.09 | -2.61 | 0.076 | inactive
CG42682 | DRSC41433 | -2.51 | 0.391 | -0.224 | inactive
ND-PDSW (NADH dehydrogenase (ubiquinone) PDSW subunit) | DRSC00715 | 0.291 | -0.109 | -10.1 | inactive
nAChRbeta3 (nicotinic Acetylcholine Receptor beta3) | DRSC00325 | -2.13 | -0.809 | -0.417 | inactive
CG5800 | DRSC19962 | -0.976 | -0.312 | 0.691 | inactive
CG5800 | DRSC28009 | -0.932 | -0.556 | -1.79 | inactive
CG33725 | DRSC38844 | 0.275 | -0.258 | 0.228 | inactive
lt (light) | DRSC03759 | -0.703 | -1.04 | -0.587 | inactive
CG46457 | DRSC41440 | -0.291 | -2.17 | -0.809 | inactive
CG3402 | DRSC08567 | -0.184 | 0.509 | 0.89 | inactive
